Test results taken from article PMC9631343 (ACS Bio & Med Chem Au, 2022).

Target: SARS-CoV-2 RdRp (nsp12/7/8 complex) (Severe acute respiratory syndrome coronavirus 2, UniProt P0DTD1, P4715L)
Assay: cell-based
Conditions: inhibition of SARS-CoV-2 RdRp in vitro (EC50) Nsp12

SMILES: O=c1[nH]cnc2c([C@@H]3N[C@H](CO)[C@@H](O)[C@H]3O)c[nH]c12 [forodesine]
- EC50: ~0.2 µM and 0.2 µM

Where “and” joins values, the source holds several entries; their conditions need not be identical. Equal values may be shown once.
